{"source": "patent US20080272062A1", "about": "“BROAD SPECTRUM ANTIMICROBIAL PURIFICATION DEVICES AND METHODS FOR PURIFYING FLUIDS” (WATER VISIONS INTERNATIONAL, INC., priority 2006, published 2008)", "assay": "TOC and TOX of water treated with chlorhexidine dihydrate filled cell"}
{"smiles": "N=C(NCCCCCCNC(=N)NC(=N)Nc1ccc(Cl)cc1)NC(=N)Nc1ccc(Cl)cc1.O.O", "note": "[Chlorhexidine dihydrate, chlorhexidine dihydrate]", "values": [{"measurement": "TOC (total organic content) of treated water", "setting": "20 L, Run 1", "result": 36, "unit": "mg/L"}, {"measurement": "TOX (total halides) of treated water", "setting": "20 L, Run 1", "result": 2.6, "unit": "mg/L"}, {"measurement": "TOX (total halides) of treated water", "setting": "20 L, Run 2", "result": 2.7, "unit": "mg/L"}, {"measurement": "TOC (total organic content) of treated water", "setting": "40 L, Run 1", "result": 27, "unit": "mg/L"}, {"measurement": "TOX (total halides) of treated water", "setting": "40 L, Run 1", "result": "<2", "unit": "mg/L"}, {"measurement": "TOX (total halides) of treated water", "setting": "40 L, Run 2", "result": 2.6, "unit": "mg/L"}, {"measurement": "TOC (total organic content) of treated water", "setting": "60 L, Run 1", "result": 23, "unit": "mg/L"}, {"measurement": "TOX (total halides) of treated water", "setting": "60 L, Run 1", "result": 3.2, "unit": "mg/L"}, {"measurement": "TOX (total halides) of treated water", "setting": "60 L, Run 2", "result": "<2", "unit": "mg/L"}, {"measurement": "TOC (total organic content) of treated water", "setting": "80 L, Run 1", "result": 20, "unit": "mg/L"}, {"measurement": "TOX (total halides) of treated water", "setting": "80 L, Run 1", "result": 3.2, "unit": "mg/L"}, {"measurement": "TOX (total halides) of treated water", "setting": "80 L, Run 2", "result": "<2", "unit": "mg/L"}]}
